Assays:
[1] = molecular target: ToxA:1800-1945 (six-repeat N-terminal part of the toxin A CWB domain) (Clostridium difficile, UniProt P16154 1800-1945)
[2] = molecular target: ToxA:2078-2234 (seven-repeat central part of the toxin A CWB domain) (Clostridium difficile, UniProt P16154 2078-2234)

B1: Antibody 3358 (or 543), murine monoclonal anti-toxin A antibody (antibody, V domains shown)
VH: QVQLQQPGAELVKPGASVRLSCKAGGYTFTSYWLHWVKQRPGQGLEWIGMIHPNSGSYDYSETFRTKATLTVDKSSDTAYMQLTSLTSEDSAVYYCARGGSNYDIFAYWGQGTTLTVSS
VL: NIVMTQSPKSMSMSVGERVTFNCRASENVGTYVFWYQQKPEQSPRLLIYGASNRYTGVPDRFTGSGSATDFTLTISGVQAEDLADYHCGQSYRHLTFGGGTKLEIK
- Kd [1]: 0.6 nM
- Kd [2]: 3.4 nM

B2: Antibody 227 (or 3359), murine monoclonal anti-toxin A antibody (antibody, V domains shown)
VH: EVQLVESGGGLMKPGGSLKLSCAASGFAFGSYDMSWVRQTPEKRLEWVAYISSGGGITFYPDSVRGRFTISRDNAKNSLYMEMSSLRSEDTAMYYCARWDWDLFAYWGQGTLVTVSA
VL: DIKMTQSPSSMYTSLGERVTITCKASQDINSCLSWFQQKPGKSPKALIFRANILVDGVPSRFSGSGSGQDYSLTISSLEYEDLGIYYCLQYDEFPWTFGGGTRLEIK
- Kd [1]: 100 nM
- Kd [2]: 13 nM

B3: rPBA-3, chimeric recombinant form of anti-toxin A monoclonal antibody PBA-3 (wildtype, plasmids BD12584 heavy and BD12585 light) (antibody, V domains shown)
VH: QVQLQQSGPELVKPGASVRISCKASGFTFTSYHVNWVKQRPGQGLEWIGWIYPGNVNTEYNEKFKGKATLTADKSSSTAYMQLSSLTSEDSAVYFCASHEYYGSDWYFDVWGAGTTVTVSS
VL: DAVMTQTPLSLPVSLGDQASISCRSSQSLENRNGNTYLNWYLQKPGQSPQLLIYRVSNRFSGVLDRFSGSGSGTDFTLKISRVEAEDLGVYFCLQVTHVPYTFGGGTKLEIK
- Kd [2]: 55 nM

From patent US20090087478A1 (PROGENICS PHARMACEUTICALS NEVADA, published 2009)
